The values that follow come from publication PMC12319226 (Frontiers in Bioinformatics, 2025).

Holding throughout (assay): BLI
Conditions in all cases: both partners purified

One test concerns the target T1, fHbp m001932 (Neisseria meningitidis; fHbp …, chimera).
T1 chain: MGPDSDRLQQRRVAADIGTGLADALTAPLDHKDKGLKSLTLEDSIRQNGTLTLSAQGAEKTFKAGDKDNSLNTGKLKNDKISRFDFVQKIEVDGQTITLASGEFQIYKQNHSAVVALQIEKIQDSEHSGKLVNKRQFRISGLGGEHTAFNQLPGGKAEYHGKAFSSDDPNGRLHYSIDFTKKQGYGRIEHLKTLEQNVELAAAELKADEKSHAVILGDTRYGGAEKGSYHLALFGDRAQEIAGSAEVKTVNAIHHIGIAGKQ

The next test addresses T2, fHbp m002392 (Neisseria meningitidis; fHbp …, chimera).
T2 chain: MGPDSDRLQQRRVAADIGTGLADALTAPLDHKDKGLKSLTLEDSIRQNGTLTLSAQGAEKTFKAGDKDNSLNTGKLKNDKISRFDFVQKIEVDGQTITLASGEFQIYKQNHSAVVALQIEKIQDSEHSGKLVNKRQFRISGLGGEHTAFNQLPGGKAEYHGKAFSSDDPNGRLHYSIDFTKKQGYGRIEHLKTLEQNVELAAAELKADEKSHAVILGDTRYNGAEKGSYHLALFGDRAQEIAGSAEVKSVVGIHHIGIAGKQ

Another test addresses T3, fHbp m002420 (Neisseria meningitidis, designed fHbp …, chimera).
T3 chain: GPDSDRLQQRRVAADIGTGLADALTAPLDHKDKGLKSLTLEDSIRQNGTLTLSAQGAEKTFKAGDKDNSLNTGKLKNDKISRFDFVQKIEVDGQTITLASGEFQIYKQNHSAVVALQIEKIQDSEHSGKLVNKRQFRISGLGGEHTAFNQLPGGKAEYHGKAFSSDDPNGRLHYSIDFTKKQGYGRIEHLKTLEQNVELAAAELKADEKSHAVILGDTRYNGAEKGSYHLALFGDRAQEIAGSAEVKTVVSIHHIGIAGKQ

The target in the next test is T4, fHbp m002332 (Neisseria meningitidis; fHbp …, chimera).
T4 chain: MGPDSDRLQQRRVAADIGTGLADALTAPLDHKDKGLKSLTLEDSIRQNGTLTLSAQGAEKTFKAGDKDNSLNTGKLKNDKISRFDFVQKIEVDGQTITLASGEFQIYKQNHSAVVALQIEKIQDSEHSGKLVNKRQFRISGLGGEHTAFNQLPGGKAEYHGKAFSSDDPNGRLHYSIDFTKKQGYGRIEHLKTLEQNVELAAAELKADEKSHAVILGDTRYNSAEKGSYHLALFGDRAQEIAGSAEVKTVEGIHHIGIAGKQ

A further test concerns the target T5, fHbp m001928 (Neisseria meningitidis; fHbp …, chimera).
T5 chain: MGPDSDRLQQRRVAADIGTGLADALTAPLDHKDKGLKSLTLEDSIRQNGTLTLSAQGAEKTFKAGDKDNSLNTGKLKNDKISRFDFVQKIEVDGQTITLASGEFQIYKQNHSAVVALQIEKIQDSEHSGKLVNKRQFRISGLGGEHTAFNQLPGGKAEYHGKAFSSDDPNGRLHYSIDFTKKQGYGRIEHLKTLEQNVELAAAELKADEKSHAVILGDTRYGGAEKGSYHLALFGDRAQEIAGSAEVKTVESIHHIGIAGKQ

The next test deals with T6, fHbp m002252 (Neisseria meningitidis; fHbp …, chimera).
T6 chain: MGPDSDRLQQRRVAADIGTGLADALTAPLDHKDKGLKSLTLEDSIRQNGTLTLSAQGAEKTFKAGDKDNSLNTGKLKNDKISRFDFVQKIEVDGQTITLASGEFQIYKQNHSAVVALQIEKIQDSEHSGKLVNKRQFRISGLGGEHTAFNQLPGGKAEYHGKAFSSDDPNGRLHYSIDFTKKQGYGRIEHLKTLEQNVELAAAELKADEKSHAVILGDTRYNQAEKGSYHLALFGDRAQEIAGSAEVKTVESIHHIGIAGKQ

A further test addresses T7, fHbp m001927 (Neisseria meningitidis; fHbp …, chimera).
T7 chain: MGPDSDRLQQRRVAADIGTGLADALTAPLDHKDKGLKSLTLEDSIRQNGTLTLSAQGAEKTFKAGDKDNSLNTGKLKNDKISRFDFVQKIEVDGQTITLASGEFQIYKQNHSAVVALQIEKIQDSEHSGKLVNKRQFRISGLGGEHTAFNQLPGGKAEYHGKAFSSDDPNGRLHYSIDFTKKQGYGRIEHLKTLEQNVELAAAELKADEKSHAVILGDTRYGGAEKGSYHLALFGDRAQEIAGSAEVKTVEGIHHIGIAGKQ

Several values for one entry are separate records, joined by “and”; a condition that tells them apart may be missing. Identical values can stand only once.

B1: chimeric antibody hJAR5 (antibody, V domains shown)
VH: QVQMQQPGAELVKPGASVKLSCKASGYTFISYWMHWVKQRPGRGLEWIGRIAPDTGIIYYNEKFKNKATLTVDTPSSTAYMQLNSLTSEDSAVYYCARYLKYDGSTYRFDYWGQGTTLTVSS
VL: DIVMTQAAPSVPVTPGESVSISCRSSKSLLHSNGNTYLFWFLQRPGQSPQLLIYRMSNLASGVPDRFSGSGSGTSFTLRISRVEAEDVGVYYCMQHLEYPYTFGGGTKLEIK
notes: also called hJAR5-2; humanized JAR5; source: Expi293, purified (MabSelect SuRe, SEC); copies: 2 + 2
As for B1, the association rate constant (kon) in the test with fHbp m001932 was 251000 ± 1280 M⁻¹ s⁻¹; in the test with fHbp m002392 it was 413000 M⁻¹ s⁻¹ and 443000 M⁻¹ s⁻¹; with fHbp m002420, 683900 ± 4300 M⁻¹ s⁻¹; with fHbp m002332 it was 458500 ± 1890 M⁻¹ s⁻¹; with fHbp m002252, 221100 ± 2120 M⁻¹ s⁻¹; in the test with fHbp m001927 it was 450900 ± 1400 M⁻¹ s⁻¹. Further, the off-rate (koff) with fHbp m002392 was 0.000294 s⁻¹ and 0.000305 s⁻¹; with fHbp m002420, 0.000175 s⁻¹; with fHbp m002332, 0.000304 s⁻¹; with fHbp m001928 it was 0.000299 s⁻¹; in the test with fHbp m002252, 0.00112 s⁻¹.

One may read the kon as the second-order rate constant of association. High values mean faster complex formation, low ones slower complex formation. Broadly, the koff is a measure of how fast the partners let go of each other. Low values mean a long-lived complex, high ones a short-lived complex.
